Results of unrelated studies side by side (data: NIAID ChemDB).

Common to all: whole-cell or culture tests; species: Mycobacterium tuberculosis

ECn is the concentration giving n% inhibition of infection, replication or growth.

structure	strain	method	cells	read-out	dose	setting	changes	value
COc1ccc(-c2csc(NC(c3ccccc3Cl)C3CCCCC3=O)n2)cc1	H37Rv	broth dilution / agar / visual reading		MIC				50 µg/mL
COCOC(OCOC)c1ccc([N+](=O)ONNC(=O)c2cc(/C=C\c3ccco3)on2)o1	H37Rv	resazurin		inhibition	6.25 µg/mL			59%
COc1ccc(C(=O)NCc2cccnc2)c(O)c1	H37Rv			MIC		21 d		500 µM
Cc1ccc(-c2csc(NC(c3ccc(O)cc3)C3CCCCC3=O)n2)cc1	H37Rv	broth dilution / agar / visual reading		MIC				50 µg/mL
CN(c1ccc(OC(F)(F)F)cc1)C1CCN(c2ccc(OC[C@@]3(C)Cn4cc([N+](=O)[O-])nc4O3)cc2)CC1	H37Rv			MIC				0.012 µg/mL
O=[N+]([O-])c1cc(Sc2nc3c(Br)cc(Br)cc3[nH]2)cc([N+](=O)[O-])c1	My 331/88			MIC				4 µM
COc1cccc(-c2cn3cc(Cl)sc3n2)c1	H37Rv			MIC				>6.25 µg/mL
C/C(=N\NC(=O)c1ccncc1)c1ccc(F)cc1	H37Rv (ethambutol-resistant)			MIC				2 µg/mL
FC(F)(F)C(F)(F)C(F)(F)c1nc2c(Br)c(Br)c(Br)c(Br)c2[nH]1	My 331/88			MIC				8 µM
O=C(NCc1ccccn1)c1cc(Br)ccc1O	H37Rv			MIC		21 d		500 µM
O=Cc1ccc([N+](=O)ONNC(=O)c2cc(/C=C\c3ccco3)on2)cc1	H37Rv	resazurin		inhibition	6.25 µg/mL			37%
FC(F)(F)c1cccc(-c2cn3ccsc3n2)c1	H37Rv			inhibition	6.25 µg/mL			83%
COc1ccc(CN2CCN(c3nc(Nc4ccc(C#N)c(C(F)(F)F)c4)nc(Oc4cccc5cccnc45)n3)CC2)c(OC)c1OC	H37Rv	BACTEC		MIC				>6.25 µg/mL
CC1(C)Cc2ccc(OCC3CCN(c4ccc(OC[C@@]5(C)Cn6cc([N+](=O)[O-])nc6O5)cc4)CC3)cc2O1	H37Rv			MIC				0.024 µg/mL
O=C(NNCc1cccc(C(F)(F)F)c1)c1ccncc1	Isoniazid-resistant			MIC				>6.25 µg/mL
Clc1c2c(c(Cl)c3c1=Nc1ncccc1O3)=Nc1ncccc1O2	H37Rv	BACTEC		inhibition	12.5 µg/mL			-1%
C=C/C=C/CC1=C(C)[C@@H](OC(=O)[C@@H]2[C@@H](C=C(C)C)C2(C)C)CC1=O	H37Rv			MIC				64 µg/mL
Clc1cn2cc(-c3ccc(Cl)c(Cl)c3Cl)nc2s1	H37Rv			MIC				>6.25 µg/mL
O=c1cc(-c2ccc(O)c(O)c2)oc2cc(O)cc(O)c12	H37Ra			MIC				699.3 µM
O=[N+]([O-])c1ccc(Sc2nc3c(Br)c(Br)c(Br)c(Br)c3[nH]2)c([N+](=O)[O-])c1	My 331/88			MIC				16 µM
Oc1oc(-c2ccccc2)nc1/C=C1/C=NN=N1	H37Rv	BACTEC		inhibition	12.5 µg/mL			-8%
COc1ccc(-c2cn3cc(Cl)sc3n2)cc1	H37Rv			MIC				>6.25 µg/mL
O=c1c2ccccc2sc2nc(CCl)nn12	H37Rv	resazurin		MIC bound				>6.25 µg/mL
O=C(NNCc1ccccc1F)c1ccncc1	H37Rv (ethambutol-resistant)			MIC				1.95 µg/mL
C[C@]1(COc2ccc(N3CCN(C/C=C/c4cccc(Cl)c4Cl)CC3)cc2)Cn2cc([N+](=O)[O-])nc2O1	H37Rv			MIC				<0.012 µg/mL
Cc1nnc2sc(=S)[nH]n12	H37Rv	BACTEC		MIC bound				≤128 µg/mL
N#Cc1ccc(Nc2nc(Oc3cccc4cccnc34)nc(N3CCN(c4ncccn4)CC3)n2)cc1C(F)(F)F	H37Rv	BACTEC		MIC				>6.25 µg/mL
CC1(C)SC(=O)N(CCC#CCCc2ccccc2)C1=O	H37Rv	BACTEC		MIC bound				>12.5 µg/mL
COc1cccc(C(=O)NCc2ccccn2)c1O	H37Rv			MIC		21 d		250 µM
CCNC(=O)OCC1=C(COC(=O)NCC)C2OC1C(C(=O)OC)=C2C(=O)OC	H37Rv	BACTEC		inhibition	12.5 µg/mL			-9%
CCCn1c(=O)c2c3c(cnc2n(CCC)c1=O)C(=O)C1=C(C3=O)C2CCC1C2	H37Rv	luminescence		EC90			pSMT1 luciferase reporter plasmid	4.28 µg/mL
CCCCCCCCCCCC(=O)C1=C(O)[C@H](CCO)NC1=O	H37Rv (ATCC 27294)			MIC				2.5 µg/mL
O=C(/C=C/c1ccccc1)NNC(=O)c1cc(/C=C\c2ccco2)on1	H37Rv	resazurin		inhibition	6.25 µg/mL			80%
COc1cc2c(cc1OC)C(O)C(O)(CO)C(C(=O)O)C2c1cc(OC)c(OC)c(OC)c1	H37Rv	BACTEC		inhibition	12.8 µg/mL			7%
COC(=O)[C@H](CCl)NC(=O)OCc1ccccc1	H37Rv (ATCC 27294)	resazurin		MIC				50 µg/mL
COc1ccc(/C=C/C(=O)c2ccc(OC)c(OC)c2OC)cc1	H37Ra			MIC				>581.4 µM
CC(C)n1c(=O)c2c3c(cnc2n(C(C)C)c1=O)C(=O)C1=C(C3=O)C2CCC1CC2	H37Rv	luminescence		EC90			pSMT1 luciferase reporter plasmid	2.32 µg/mL
O=C(NCc1cccnc1)c1ccc(Cl)cc1O	H37Rv			MIC		21 d		250 µM
O=C(N=Nn1c(O)c(O)c2ccccc21)c1cccnc1	H37Rv	resazurin		inhibition	6.25 µg/mL			57%
COc1ccccc1-c1cn2ccsc2n1	H37Rv			MIC				>6.25 µg/mL
FC(F)(F)C(F)(F)C(F)(F)C(F)(F)c1nc2cc(Cl)c(Cl)cc2[nH]1	My 331/88			MIC				4 µM
CCOCC1(c2ccccc2)C(=O)N(C)C(=O)N1C	H37Rv	BACTEC		inhibition	12.5 µg/mL			0%
C/C(=N\NC(=O)c1ccncc1)c1ccccc1F	Ethambutol-resistant			MIC				0.2 µg/mL
COc1c(N2CCNC(C)C2)c(F)cc2c(=O)c(C(=O)O)cn(C3CC3)c12	H37Rv	broth dilution / agar / visual reading		MIC				6.25 µg/mL
O=[N+]([O-])c1cc(Sc2nc3ccc(Br)cc3[nH]2)cc([N+](=O)[O-])c1	My 331/88			MIC				4 µM
CC(C)[C@H]1C(=O)OC[C@@H](NC(=O)c2cnc3ccccc3n2)C(=O)N[C@@H](C)C(=O)N(C)[C@@H]2CSSC[C@H](C(=O)N1C)N(C)C(=O)[C@H](C)NC(=O)[C@H](NC(=O)c1cnc3ccccc3n1)COC(=O)[C@H](C(C)C)N(C)C2=O	H37Rv	BACTEC		inhibition	12.5 µg/mL			100%
C[C@]1(COc2ccc(N3CCC(Cc4cccc(OC(F)(F)F)c4)CC3)cc2)Cn2cc([N+](=O)[O-])nc2O1	H37Rv			MIC				0.39 µg/mL
COc1cc2c(c(OC)c1OC)C(=O)CC(c1ccc(O)cc1)O2	H37Ra			MIC				606 µM
CN(Cc1ccc(C(F)(F)F)cc1F)C1CCN(c2ccc(OC[C@@]3(C)Cn4cc([N+](=O)[O-])nc4O3)cc2)CC1	H37Rv			MIC				0.012 µg/mL
O=C(COc1ccc([N+](=O)[O-])cc1)NN1C(=O)c2ccc([N+](=O)[O-])cc2C1=O	H37Rv	resazurin		inhibition	6.25 µg/mL			9%
C[C@H]1NCc2cc(-c3ccc4c(=O)c(C(=O)O)cn(C5CC5)c4c3OC(F)F)ccc21	10 strains			MIC50				2 µg/mL
COc1cccc2c1C(=O)C1=C(C2=O)c2c(O)cc(CO)cc2C(O)C1O	H37Rv	BACTEC		inhibition	12.5 µg/mL			30%
O=C(/C=C/c1ccccc1)NNC(=O)c1cccnc1	H37Rv	resazurin		inhibition	6.25 µg/mL			54%
CC(C)=CCOc1cc(NC(=S)c2ccsc2C)ccc1Cl	H37Rv	BACTEC		inhibition	6.25 µg/mL			60%
Clc1cn2cc(-c3ccccc3)nc2s1	H37Rv			inhibition	6.25 µg/mL			29%
O=C(NCc1ccccc1)c1ccc(Cl)cc1O	H37Rv			MIC		21 d		62 µM
O=C(O)c1cccc2cccc(-c3c4ccc(=O)cc-4oc4cc(O)ccc34)c12	H37Rv	BACTEC		inhibition	12.5 µg/mL			0%
CCn1c(=O)c2c3c(cnc2n(CC)c1=O)C(=O)C1=C(C3=O)C2CCC1C2	H37Rv	luminescence		EC99			pSMT1 luciferase reporter plasmid	9.21 µg/mL
C[C@]1(COc2ccc(N3CCN(C/C=C/c4cc(Cl)c(Cl)cc4Cl)CC3)cc2)Cn2cc([N+](=O)[O-])nc2O1	H37Rv			MIC				0.024 µg/mL
CC(Cc1ccccc1)N(C)Cc1ccc(-c2ccc(Cl)cc2)o1	H37Rv	BACTEC		MIC bound				≤12.5 µg/mL
O=C(N/N=C/c1ccccc1F)c1ccncc1	Isoniazid-resistant			MIC				>1.6 µg/mL
CN1CCN(c2nc(Nc3ccc(C#N)c(C(F)(F)F)c3)nc(Oc3cccc4cccnc34)n2)CC1	H37Rv	BACTEC		MIC				>6.25 µg/mL
C[C@]1(COc2ccc(-c3ccc(N4CCCN(c5ccc(OC(F)(F)F)cc5)CC4)cc3)cc2)Cn2cc([N+](=O)[O-])nc2O1	H37Rv			MIC				0.024 µg/mL
Nc1ccc(-c2cn3cc(Cl)sc3n2)cc1	H37Rv			MIC				>6.25 µg/mL
COC(=O)c1c(C(=O)OC)c2cc(C(=O)OC(C)C)ccn2c1C(=O)c1ccc(Br)cc1		resazurin		MIC			XDR-MTB	8 µg/mL
C=C1C(=O)C23OC2C1CCC(=O)C1(C)CCC(OC(C)=O)C(C)(C)C1CC3=O	H37Rv	BACTEC		MIC				≥12.5 µg/mL
CCC(C)[C@@H]1NC(=O)[C@@H](CC(C)C)NC(=O)[C@H](CC(C)C)NC(=O)[C@H](Cc2c[nH]c3ccccc23)NC(=O)[C@@H](CCCN)NC(=O)[C@H](CC(=O)O)NC1=O	H37Rv		Macrophage	EC50				0.8 µM
O=C(NCc1cccnc1)c1ccccc1O	H37Rv			MIC		14 d		500 µM
Cn1nnc(-c2ccc(-c3ccc(N4C[C@H](CO)OC4=O)cc3F)cn2)n1	25 isolates (isoniazid rifampin-resistant)			MIC90				0.5 µg/mL
C[N+]1([O-])CC[N+](C)([O-])CC1	H37Rv	BACTEC		MIC				≥12.5 µg/mL
N#Cc1ccc(Nc2nc(Oc3cccc4cccnc34)nc(N3CCC(Cc4ccccc4)CC3)n2)cc1C(F)(F)F	H37Rv	BACTEC		MIC				>6.25 µg/mL
Cc1ccc(-c2csc(NC(c3ccc(Cl)cc3)C3CCCCC3=O)n2)cc1	H37Rv	broth dilution / agar / visual reading		MIC				50 µg/mL
O=[N+]([O-])c1ccc(Sc2nc3c(Br)cc(Br)cc3[nH]2)cc1	My 331/88			MIC				4 µM
CCN=c1cc2oc3cc(NCC)c(C)cc3c(-c3ccccc3C(=O)OCC)c-2cc1C	H37Rv	BACTEC		MIC bound				>12.5 µg/mL
C/C(=N\NC(=O)c1ccncc1)c1ccc(Cl)cc1Cl	H37Rv			MIC				0.1 µg/mL
CN(C)c1ccc2c(N(C)C)cc(N(C)C)nc2c1	H37Rv	BACTEC		inhibition	12.5 µg/mL			93%
Clc1cn2cc(-c3ccc(Br)cc3)nc2s1	H37Rv			inhibition	6.25 µg/mL			0%
COc1cc2c(C)c[n+]3cc4cc5c(OC)c(OC)ccc5cc4cc3c2cc1OC.O=C([O-])CS(=O)(=O)O	H37Rv	BACTEC		inhibition	12.5 µg/mL			53%
O=C(NCc1cccnc1)c1cc(Br)cc(Br)c1O	H37Rv			MIC		21 d		250 µM
O=C1CN(CCCN2c3ccccc3Sc3ccc(C(F)(F)F)cc32)CC(=O)N1	H37Rv	BACTEC		inhibition	12.5 µg/mL			-24%
O=C(NCc1ccccn1)c1cc(F)ccc1O	H37Rv			MIC		21 d		1000 µM
Cc1ccc(-c2cn3cc(Cl)sc3n2)cc1	H37Rv			MIC				>6.25 µg/mL
O=[N+]([O-])c1cn2c(n1)O[C@@H](COc1ccc(N3CCC(CCc4ccc(OC(F)(F)F)cc4)CC3)cc1)C2	H37Rv			MIC				0.024 µg/mL

Blank or dashed fields: not listed here. Inhibition is in % at the dose shown (toxicity tests: loss of growth or viability). A number after MIC or MFC names an inhibition level or a share of isolates. MIC bound: limit read from a one-dose screen. Neighbouring rows are from separate reports.